Test results as given in the supplement of paper PMC10933113.
± gives the uncertainty stated by the source. This is a selection; strong and weak results do not stand in their true shares.

Test system: THP-1
Assay: CD86 surface expression induction over DMSO control (% over DMSO); higher = stronger dendritic cell activation
Settings: 10 µM; exposure time: 24 h
Protocol: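 hCLAT-like CD54 and CD86 surface expression on THP1 cells after 24 h exposure at a single concentration (highest non-cytotoxic concentration, or 100-200 µM if not cytotoxic). Flow cytometry (iQue) was run on 5,000 live cells.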

Structure (SMILES) | CD86 surface expression induction
C[CH2][Sn]([Br])([CH2]C)[CH2]C [Triethyltin bromide] | 101 ± 15
